Anti-infective test results gathered from many reports (values: NIAID ChemDB through PubChem).

Shared fields: tests in culture; species: Hepatitis C virus

Conditions beyond the fields shown may differ between rows. Two numbers with a dash give a range or band. Blank or dashed fields: not listed here. ECn is the concentration giving n% inhibition of infection, replication or growth.

{"SMILES": "CCOc1ccc2oc(-c3ccc(Cl)s3)c(C(=O)NC)c2c1", "cells": "Huh7", "read-out": "EC50", "method": "replicon", "value": "<10 µM"}
{"SMILES": "CCCS(=O)(=O)N1CCN(Cc2ccc(NC(=O)c3ccc(-c4cc(NC(=O)C5CC5)ccc4OC(F)(F)F)cc3)cc2)CC1", "strain or isolate": "1b", "read-out": "EC50", "method": "replicon", "value": "0.006 µM"}
{"SMILES": "COC(=O)C1=C(C(=O)OC)C2N(CCOCCN3c4ccccc4[C@]45CC(=O)N(Cc6ccccc6)C4=NC(C(=O)OC)=C(C(=O)OC)C35)C3C=CC=CC3[C@@]23CCC(=O)N(Cc2ccccc2)C3=N1", "cells": "Huh7.5", "read-out": "EC90", "method": "PCR", "value": "25.9 µM"}
{"SMILES": "COc1nc(N)nc2c1ncn2[C@@H]1O[C@H](COP(=O)(N[C@@H](C)C(=O)OCC(C)(C)C)Oc2cccc3ccccc23)[C@@H](O)[C@@]1(C)O", "strain or isolate": "1b replicon", "cells": "Huh7", "read-out": "EC50", "method": "luciferase / replicon", "value": "0.01 µM"}
{"SMILES": "O=C(N[C@@H](Cc1c[nH]c2ccccc12)C(=O)O)c1ccc2nc(-c3ccccn3)c(-c3ccccn3)nc2c1", "cells": "Huh7", "read-out": "EC50", "method": "replicon", "value": ">50 µM"}
{"SMILES": "COC(=O)C(C)(C)NP(=O)(OC[C@H]1O[C@@H](c2cnc3c(=O)[nH]c(N)nn23)[C@](C)(O)[C@@H]1O)Oc1cccc2ccccc12", "cells": "Huh7", "read-out": "EC50", "method": "luciferase / reporter gene", "value": ">50 µM"}
{"SMILES": "CC(C)(C)OC(=O)N1[C@H](CO)CC(F)(F)[C@@H]1n1cnc2c(N)ncnc21", "read-out": "EC50", "method": "replicon", "value": ">10 µM"}
{"SMILES": "COC(=O)C(C)(C)NP(=O)(OC[C@H]1O[C@@H](c2ccc3c(N)ncnn23)[C@](C)(O)[C@@H]1O)Oc1cccc2ccccc12", "cells": "Huh7", "read-out": "EC50", "method": "luciferase / reporter gene", "value": "4.9 µM"}
{"SMILES": "CO[C@@H]1[C@H](O)[C@@H](CO)O[C@H]1n1cc(C#Cc2ccc(C(F)(F)F)cc2)c(=O)[nH]c1=O", "cells": "Huh7", "read-out": "EC50", "method": "replicon", "value": ">300 µM"}
{"SMILES": "CC(C)(C)OC(=O)N1[C@H](CO)CC(F)(F)[C@H]1n1cc(F)c(=O)[nH]c1=O", "read-out": "EC50", "method": "replicon", "value": ">10 µM"}
{"SMILES": "CCc1cn([C@@H]2O[C@H](CO)[C@@H](O)[C@@]2(C)F)c2ncnc(N)c12", "cells": "CEM", "read-out": "EC90", "method": "replicon", "value": ">10 µM"}
{"SMILES": "COc1ccc(C#Cc2cn([C@@H]3O[C@H](CO)[C@@H](O)[C@H]3OC)c(=O)[nH]c2=O)cc1", "cells": "Huh7", "read-out": "EC50", "method": "replicon", "value": ">300 µM"}
{"SMILES": "NS(=O)(=O)c1ccc(CNc2nc(NCC(F)(F)F)c3nc(-c4ccc(NC(=O)C5CC5)nc4)ccc3n2)cc1", "strain or isolate": "1b", "read-out": "EC50", "method": "luciferase", "value": "0.003 µM"}
{"SMILES": "Cc1ccc(NC(=O)[C@@H]2CCCN2)cc1-c1ccc(C(=O)Nc2ccc(CN3CCS(=O)(=O)CC3)cc2)cc1", "strain or isolate": "1b", "read-out": "EC50", "method": "replicon", "value": "0.13 µM"}
{"SMILES": "NC(=O)[C@H](Cc1c[nH]c2ccccc12)NC(=O)c1ccc2nc(-c3ccc(F)cc3)c(-c3ccc(F)cc3)nc2c1", "cells": "Huh7", "read-out": "EC50", "method": "replicon", "value": "10–50 µM"}
{"SMILES": "COc1ncnc2c1ccn2[C@@H]1O[C@H](CO)[C@@H](O)[C@@]1(C)F", "cells": "CEM", "read-out": "EC90", "method": "replicon", "value": ">10 µM"}
{"SMILES": "C[C@@]1(O)[C@H](O)[C@@H](CO)O[C@H]1c1ccc2c(=O)[nH]c(N)nn12", "cells": "Huh7", "read-out": "EC50", "method": "luciferase / reporter gene", "value": ">100 µM"}
{"SMILES": "CCCOc1cc2c(C(=O)NC)c(-c3ccc(F)cc3)oc2cc1NS(C)(=O)=O", "cells": "Huh7", "read-out": "EC50", "method": "replicon", "value": "<1 µM"}
{"SMILES": "O=C(Nc1ccc(CN2CCS(=O)(=O)CC2)cc1)c1ccc(-c2cc(NC(=O)C3CC3)ccc2OC(F)(F)F)cc1", "strain or isolate": "1b", "read-out": "EC50", "method": "replicon", "value": "0.062 µM"}
{"SMILES": "COc1ccccc1-c1ccnn1-c1ccccc1[N+](=O)[O-]", "cells": "Huh7", "read-out": "EC50", "method": "replicon", "value": "3 µM"}
{"SMILES": "CCCCCOC(=O)Nc1ncnn2c([C@@H]3O[C@H](CO)[C@@H](O)[C@@]3(C)O)ccc12", "cells": "Huh7", "read-out": "EC50", "method": "luciferase / reporter gene", "value": ">100 µM"}
{"SMILES": "[N-]=[N+]=NC[C@@]1(O)[C@@H](CO)O[C@@H](n2cnc3cncnc32)[C@@H]1O", "strain or isolate": "genotype 1", "cells": "Huh 5-2", "read-out": "EC50", "method": "luciferase", "value": ">100 µM"}
{"SMILES": "CC(C)(C)OC(=O)N1[C@H](CO)CC(F)(F)[C@@H]1n1cc(F)c(=O)[nH]c1=O", "read-out": "EC50", "method": "replicon", "value": ">10 µM"}
{"SMILES": "CC(C)[C@H](NP(=O)(OC[C@H]1O[C@@H](c2cnc3c(=O)[nH]c(N)nn23)[C@](C)(O)[C@@H]1O)Oc1cccc2ccccc12)C(=O)OCc1ccccc1", "cells": "Huh7", "read-out": "EC50", "method": "luciferase / reporter gene", "value": ">50 µM"}
{"SMILES": "O=C(O)c1ccc2nc(-c3ccccn3)c(-c3ccccn3)nc2c1", "cells": "Huh7", "read-out": "EC50", "method": "replicon", "value": ">50 µM"}
{"SMILES": "CCCOc1ccc2oc(-c3ccccc3)c(C(=O)NC)c2c1", "cells": "Huh7", "read-out": "EC50", "method": "replicon", "value": "<30 µM"}
{"SMILES": "COC(=O)c1ccc2nc(-c3ccc(F)cc3)c(-c3ccc(F)cc3)nc2c1", "cells": "Huh7", "read-out": "EC50", "method": "replicon", "value": ">50 µM"}
{"SMILES": "COc1ccc(O)c(-c2ccn(-c3nccc(OC)c3OC)n2)c1", "cells": "Huh7", "read-out": "EC50", "method": "replicon", "value": ">32 µM"}
{"SMILES": "CC(C)(C)OC(=O)N1[C@H](CO)CC(F)(F)[C@@H]1n1cnc2c(Cl)ncnc21", "read-out": "EC50", "method": "replicon", "value": ">10 µM"}
{"SMILES": "CNC(=O)c1c(-c2ccc(F)cc2)oc2cc(N(C)S(C)(=O)=O)c(OCc3nc(N)n[nH]3)cc12", "cells": "Huh7", "read-out": "EC50", "method": "replicon", "value": "<1 µM"}
{"SMILES": "NC(=O)[C@H](Cc1c[nH]c2ccc(O)cc12)NC(=O)c1ccc2nc(-c3ccc(F)cc3)c(-c3ccc(F)cc3)nc2c1", "cells": "Huh7", "read-out": "EC50", "method": "replicon", "value": "10–50 µM"}
{"SMILES": "CO[C@@H]1[C@H](O)[C@@H](CO)O[C@H]1n1cc(C#CC2=CCCCC2)c(=O)[nH]c1=O", "cells": "Huh7", "read-out": "EC50", "method": "replicon", "value": ">300 µM"}
{"SMILES": "COC(=O)[C@H](Cc1c[nH]c2ccccc12)NC(=O)c1ccc2nc(-c3ccco3)c(-c3ccco3)nc2c1", "cells": "Huh7", "read-out": "EC50", "method": "replicon", "value": "10–50 µM"}
{"SMILES": "CO[C@@H]1[C@H](O)[C@@H](CO)O[C@H]1n1cc(/C=C/c2ccccc2)c(=O)[nH]c1=O", "cells": "Huh7", "read-out": "EC50", "method": "replicon", "value": ">300 µM"}
{"SMILES": "CNC(=O)c1c(-c2ccc(F)cc2)oc2cc(C3CCCN3)c(OC(C)C)cc12", "cells": "Huh7", "read-out": "EC50", "method": "replicon", "value": ">30 µM"}
{"SMILES": "C#Cc1cn([C@H]2O[C@H](CO)[C@@H](O)[C@@]2(C)F)c2ncnc(N)c12", "cells": "CEM", "read-out": "EC90", "method": "replicon", "value": ">10 µM"}
{"SMILES": "CC(C)(C)OC(=O)N1[C@H](CO)CC(F)(F)[C@@H]1n1ccc(=O)[nH]c1=O", "read-out": "EC50", "method": "replicon", "value": ">10 µM"}
{"SMILES": "CNc1ncnc2c1ncn2[C@@H]1O[C@H](CO)[C@](O)(CF)[C@H]1O", "strain or isolate": "genotype 1", "cells": "Huh 5-2", "read-out": "EC50", "method": "luciferase", "value": ">100 µM"}
{"SMILES": "C[C@@]1(F)[C@H](O)[C@@H](CO)O[C@H]1n1cc(Cl)c2c(N)ncnc21", "cells": "CEM", "read-out": "EC90", "method": "replicon", "value": ">10 µM"}
{"SMILES": "COc1ccccc1-c1ccnn1-c1ccccc1F", "cells": "Huh7", "read-out": "EC50", "method": "replicon", "value": "27 µM"}
{"SMILES": "CC(C)(C)OC(=O)N1[C@H](CO)CC(F)(F)[C@H]1n1cnc2c(Cl)ncnc21", "read-out": "EC50", "method": "replicon", "value": ">10 µM"}
{"SMILES": "C[C@@]1(O)[C@H](O)[C@@H](CO)O[C@H]1c1cnc2c(N)ncnn12", "cells": "Huh7", "read-out": "EC50", "method": "luciferase / reporter gene", "value": "1.3 µM"}
{"SMILES": "CNC(=O)c1c(-c2ccc(F)cc2)oc2cc(N3CCOCC3)c(OCc3cccc4c3C(=O)OC(C)(C)O4)cc12", "cells": "Huh7", "read-out": "EC50", "method": "replicon", "value": "<10 µM"}
{"SMILES": "COC(=O)[C@H](Cc1c[nH]c2ccc(O)cc12)NC(=O)c1ccc2nc(-c3ccc(Cl)cc3)c(-c3ccc(C)cc3)nc2c1", "cells": "Huh7", "read-out": "EC50", "method": "replicon", "value": "<10 µM"}
{"SMILES": "Oc1ccccc1-c1ccn(-c2ccccc2C(F)(F)F)n1", "cells": "Huh7", "read-out": "EC50", "method": "replicon", "value": "20 µM"}
{"SMILES": "CCOC(=O)C1(NP(=O)(OC[C@H]2O[C@@H](c3cnc4c(=O)[nH]c(N)nn34)[C@](C)(O)[C@@H]2O)Oc2cccc3ccccc23)CCC1", "cells": "Huh7", "read-out": "EC50", "method": "luciferase / reporter gene", "value": ">50 µM"}
{"SMILES": "CNC(=O)c1c(-c2ccc(F)cc2)oc2cc(N3CCOCC3)c(OC(F)F)cc12", "cells": "Huh7", "read-out": "EC50", "method": "replicon", "value": "<1 µM"}
{"SMILES": "Cc1ccc(NC(=O)c2ccco2)cc1-c1ccc(C(=O)Nc2ccc(CN3CCS(=O)(=O)CC3)cc2)cc1", "strain or isolate": "1b", "read-out": "EC50", "method": "replicon", "value": "0.6 µM"}
{"SMILES": "CCNC(=O)c1cc(-c2ccc(OC)cc2)nn1-c1ncccc1C(F)(F)F", "cells": "Huh7", "read-out": "EC50", "method": "replicon", "value": ">32 µM"}
{"SMILES": "COC(=O)/C=C/c1cn([C@@H]2O[C@H](CO)[C@@H](O)[C@H]2OC)c(=O)[nH]c1=O", "cells": "Huh7", "read-out": "EC50", "method": "replicon", "value": ">300 µM"}
{"SMILES": "CCOC(=O)c1cc(-c2ccc3ccccc3c2)nn1-c1ncccc1[N+](=O)[O-]", "cells": "Huh7", "read-out": "EC50", "method": "replicon", "value": ">32 µM"}
{"SMILES": "O=C(O)c1ccc2nc(-c3ccc(F)cc3)c(-c3ccc(F)cc3)nc2c1", "cells": "Huh7", "read-out": "EC50", "method": "replicon", "value": ">50 µM"}
{"SMILES": "C=CCN1c2ccccc2[C@]23CC(=O)N(Cc4ccccc4)C2=NC(C(=O)OC)=C(C(=O)OC)C13", "cells": "Huh7.5", "read-out": "EC90", "method": "PCR", "value": "33.9 µM"}
{"SMILES": "Cc1ccc(O)c(-c2n[nH]c(-c3nccc4ccccc34)n2)c1O", "cells": "Huh7", "read-out": "EC50", "method": "replicon", "value": ">19 µM"}

For reference, 4 entries again:

SMILES	strain or isolate	cells	read-out	method	value
CC(C)(C)OC(=O)N1[C@H](CO)CC(F)(F)[C@H]1n1cc(F)c(=O)[nH]c1=O			EC50	replicon	>10 µM
COc1nc(N)nc2c1ncn2[C@@H]1O[C@H](COP(=O)(N[C@@H](C)C(=O)OCC(C)(C)C)Oc2cccc3ccccc23)[C@@H](O)[C@@]1(C)O	1b replicon	Huh7	EC50	luciferase / replicon	0.01 µM
C[C@@]1(O)[C@H](O)[C@@H](CO)O[C@H]1c1ccc2c(=O)[nH]c(N)nn12		Huh7	EC50	luciferase / reporter gene	>100 µM
CCCCCOC(=O)Nc1ncnn2c([C@@H]3O[C@H](CO)[C@@H](O)[C@@]3(C)O)ccc12		Huh7	EC50	luciferase / reporter gene	>100 µM